Results of unrelated studies side by side (data: NIAID ChemDB).

All rows: whole-cell or culture tests; organism: Mycobacterium avium intracellulare; endpoint: MIC

Lines come from different laboratories, so protocols vary.

CC(C)N=c1cc2n(-c3ccc(Cl)cc3)c3ccccc3nc-2cc1Nc1ccc(Cl)cc1 ; strain or isolate: 97002 ; result: 1 µg/mL
CCCCC(=O)O[C@H]1[C@H](C)OC(O[C@H]2[C@H](C)[C@@H](O[C@@H]3O[C@H](C)C[C@H](N(C)C)[C@H]3O)C(C)(O)C[C@@H](C)/C(=N\OCCCOc3ccccc3)[C@H](C)[C@@H](O)[C@](C)(O)[C@@H](CC)OC(=O)[C@@H]2C)C[C@@]1(C)OC ; strain or isolate: 20066 (clarithromycin-susceptible) ; result: 0.78 µg/mL
CC/C=C/CCNC(=O)O[C@H]1C(O[C@@H]2[C@@H](C)[C@H](O[C@H]3C[C@@](C)(OC)[C@@H](OC(C)=O)[C@H](C)O3)[C@@H](C)C(=O)O[C@H](CC)[C@@](C)(O)[C@H](O)[C@@H](C)/C(=N/OCCCC3CCCCC3)[C@H](C)CC2(C)O)O[C@H](C)C[C@@H]1N(C)C ; strain or isolate: 20067 ; result: 0.2 µg/mL
CC[C@H]1OC(=O)[C@H](C)[C@@H](O[C@H]2C[C@@](C)(OC)[C@@H](OC(C)=O)[C@H](C)O2)[C@H](C)[C@@H](O[C@@H]2O[C@H](C)C[C@H](N(C)C)[C@H]2O)C(C)(O)C[C@@H](C)/C(=N\OC)[C@H](C)[C@@H](O)[C@]1(C)O ; strain or isolate: 20066 (clarithromycin-susceptible) ; result: 12.5 µg/mL
NC[C@H]1O[C@H](O[C@H]2[C@H](O)[C@@H](O[C@H]3O[C@H](CO)[C@@H](O)[C@H](N)[C@H]3O)[C@H](N)C[C@@H]2N)[C@H](O)[C@@H](O)[C@@H]1O ; strain or isolate: CIPT 140310019 ; result: 25 µg/mL
CCCCCCCCCCCCCCNNC(=O)O[C@H]1[C@H](O[C@@H]2[C@@H](C)[C@H](O[C@H]3C[C@@](C)(OC)[C@@H](OC(C)=O)[C@H](C)O3)[C@@H](C)C(=O)O[C@H](CC)[C@@](C)(O)[C@H](O)[C@@H](C)/C(=N/OCCCC3CCCCC3)[C@H](C)CC2(C)O)O[C@H](C)C[C@@H]1N(C)C ; strain or isolate: 20066 (clarithromycin-susceptible) ; result: >50 µg/mL
C[C@@H]1CN(c2c(F)c(N)c3c(=O)c(C(=O)O)cn(C4CC4)c3c2F)C[C@H](C)N1 ; strain or isolate: N-499 (HIV-) ; result: 2 µg/mL
CC[C@H]1OC(=O)[C@H](C)[C@@H](O[C@H]2C[C@@](C)(OC)[C@@H](OC(C)=O)[C@H](C)O2)[C@H](C)[C@@H](O[C@@H]2O[C@H](C)C[C@H](N(C)C)[C@H]2O)C(C)(O)C[C@@H](C)/C(=N\OCCc2cccs2)[C@H](C)[C@@H](O)[C@]1(C)O ; strain or isolate: 20066 (clarithromycin-susceptible) ; result: 3.13 µg/mL
CC1(C)S[C@@H]2[C@H](NC(=O)[C@H](C(=O)[O-])c3ccsc3)C(=O)N2[C@H]1C(=O)[O-].[Na+].[Na+] ; strain or isolate: CIPT 140310021 ; result: 35 µg/mL
CO[C@H]1/C=C/O[C@@]2(C)Oc3c(C)c(O)c4c(O)c(c5c(c4c3C2=O)NC2(CCN(CC(C)C)CC2)N=5)=NC(=O)/C(C)=C\C=C\[C@H](C)[C@H](O)[C@@H](C)[C@@H](O)[C@@H](C)[C@H](OC(C)=O)[C@@H]1C ; strain or isolate: N-919 (HIV-) ; result: 0.0313 µg/mL
CC1(C)S[C@@H]2[C@H](NC(=O)C(C(=O)O)c3ccccc3)C(=O)N2[C@H]1C(=O)O ; strain or isolate: CIPT 140310031 ; result: 15 µg/mL
CC[C@H]1OC(=O)[C@H](C)[C@@H](O[C@H]2C[C@@](C)(OC)[C@@H](O)[C@H](C)O2)[C@H](C)[C@@H](O[C@@H]2O[C@H](C)C[C@H](N(C)C)[C@H]2O)[C@](C)(OC)C[C@@H](C)C(=O)[C@H](C)[C@@H](O)[C@]1(C)O ; strain or isolate: N-481 (HIV-) ; result: 4 µg/mL
CCCCNC(=O)O[C@H]1C(O[C@@H]2[C@@H](C)[C@H](O[C@H]3C[C@@](C)(OC)[C@@H](OC(C)=O)[C@H](C)O3)[C@@H](C)C(=O)O[C@H](CC)[C@@](C)(O)[C@H](O)[C@@H](C)/C(=N/OCCCC3CCCCC3)[C@H](C)CC2(C)O)O[C@H](C)C[C@@H]1N(C)C ; strain or isolate: 20075 ; result: 0.2 µg/mL
CO[C@H]1/C=C/O[C@@]2(C)Oc3c(C)c(O)c4c(O)c(c5c(c4c3C2=O)NC2(CCN(CC(C)C)CC2)N=5)=NC(=O)/C(C)=C\C=C\[C@H](C)[C@H](O)[C@@H](C)[C@@H](O)[C@@H](C)[C@H](OC(C)=O)[C@@H]1C ; strain or isolate: CIPT 140310021 ; result: 0.05 µg/mL
CC[C@H]1OC(=O)[C@H](C)[C@@H](OC2C[C@@](C)(OC)[C@@H](O)[C@H](C)O2)[C@H](C)[C@@H](O[C@@H]2O[C@H](C)C[C@H](N(C)C)[C@H]2O)C(C)(O)C[C@@H](C)/C(=N\OCCCCOc2ccccc2)[C@H](C)[C@@H](O)[C@]1(C)O ; strain or isolate: 20066 (clarithromycin-susceptible) ; result: 3.13 µg/mL
CC[C@H]1OC(=O)[C@H](C)[C@@H](O[C@H]2C[C@@](C)(OC)[C@@H](OC(C)=O)[C@H](C)O2)[C@H](C)[C@@H](OC2O[C@H](C)C[C@H](N(C)C)[C@H]2OC(=O)NCC(=O)NC)C(C)(O)C[C@@H](C)/C(=N\OCCCC2CCCCC2)[C@H](C)[C@@H](O)[C@]1(C)O ; strain or isolate: 20075 ; result: 1.56 µg/mL
CO[C@H]1/C=C/O[C@@]2(C)Oc3c(C)c(O)c4c(O)c(c5c(c4c3C2=O)NC2(CCN(CC(C)C)CC2)N=5)=NC(=O)/C(C)=C\C=C\[C@H](C)[C@H](O)[C@@H](C)[C@@H](O)[C@@H](C)[C@H](OC(C)=O)[C@@H]1C ; strain or isolate: 998 ; result: 0.125 µg/mL
CC[C@H]1OC(=O)[C@H](C)[C@@H](O[C@H]2C[C@@](C)(OC)[C@@H](OC(C)=O)[C@H](C)O2)[C@H](C)[C@@H](OC2O[C@H](C)C[C@H](N(C)C)[C@H]2OC(=O)NCCCCCCCCCCCCCCN(C)C)C(C)(O)C[C@@H](C)/C(=N\OCCCC2CCCCC2)[C@H](C)[C@@H](O)[C@]1(C)O ; strain or isolate: 20075 ; result: 0.78 µg/mL
CO[C@H]1/C=C/O[C@@]2(C)Oc3c(C)c(O)c4c(=O)c(c5oc6cc(N7CCN(CC(C)C)CC7)cc(=O)c6nc5c4c3=C2O)NC(=O)/C(C)=C\C=C\[C@H](C)[C@H](O)[C@@H](C)[C@@H](O)[C@@H](C)[C@H](OC(C)=O)[C@@H]1C ; strain or isolate: N-475 (HIV-) ; result: ≤0.0125 µg/mL
CCCCCCCCC(=O)O[C@H]1[C@H](C)[C@@H](O[C@@H]2O[C@H](C)C[C@H](N(C)C)[C@H]2O)C(C)(O)C[C@@H](C)/C(=N\OCCCOc2ccccc2)[C@H](C)[C@@H](O)[C@](C)(O)[C@@H](CC)OC(=O)[C@@H]1C ; strain or isolate: 20066 (clarithromycin-susceptible) ; result: 6.25 µg/mL
CC[C@H]1OC(=O)[C@H](C)[C@@H](O[C@H]2C[C@@](C)(OC)[C@@H](OC(C)=O)[C@H](C)O2)[C@H](C)[C@@H](OC2O[C@H](C)C[C@H](N(C)C)[C@H]2OC(N)=O)C(C)(O)C[C@@H](C)/C(=N\OCCCC2CCCCC2)[C@H](C)[C@@H](O)[C@]1(C)O ; strain or isolate: 20073 ; result: 1.56 µg/mL

A second listing of 2 rows from above:

| smiles | strain or isolate | result |
|---|---|---|
| CC[C@H]1OC(=O)[C@H](C)[C@@H](O[C@H]2C[C@@](C)(OC)[C@@H](OC(C)=O)[C@H](C)O2)[C@H](C)[C@@H](OC2O[C@H](C)C[C@H](N(C)C)[C@H]2OC(N)=O)C(C)(O)C[C@@H](C)/C(=N\OCCCC2CCCCC2)[C@H](C)[C@@H](O)[C@]1(C)O | 20073 | 1.56 µg/mL |
| NC[C@H]1O[C@H](O[C@H]2[C@H](O)[C@@H](O[C@H]3O[C@H](CO)[C@@H](O)[C@H](N)[C@H]3O)[C@H](N)C[C@@H]2N)[C@H](O)[C@@H](O)[C@@H]1O | CIPT 140310019 | 25 µg/mL |